Anti-infective test results gathered from many reports (values: NIAID ChemDB through PubChem).

CCn is the concentration with n% toxicity to the cells.

| SMILES | kind | species | strain or isolate | cells | target | measure | dose | value |
|---|---|---|---|---|---|---|---|---|
| CCC(CC)CC(NC(C)=O)C1NC(C(=O)O)CC1C(=O)OC | target | Influenza A virus | A/TOKYO/67 | - | Neuraminidase | Ki | - | 0.0008 µM |
| Nc1nc(=O)n([C@@H]2C=C(CO)[C@@H](O)[C@H]2O)cc1F | toxicity | - | - | VERO | - | CC50 | - | >100 µg/mL |
| COC(=O)C1CC(C(=O)O)NC1CNC(C)=O | target | Influenza A virus | A/TOKYO/67 | - | Neuraminidase | Ki | - | 0.9 µM |
| O=C(NC1CCCNC1)c1ccc2c(c1)nc(-c1ccoc1)n2C1CCCCC1 | target | Poliovirus | - | - | RNA-dependent RNA polymerase | IC50 | - | >25 µM |
| Cn1c(O)c(N=NC(N)=S)c2ccccc21 | culture | Variola virus | Isolate Yamada | VERO | - | EC50 | - | 39 µg/mL |
| CCCCCCCCCCCCCCCCCC(=O)OC[C@@H](COP(=O)(O)OCCNCCO[C@@]1(C(=O)O)O[C@@H]([C@H](O)[C@H](O)CO)[C@H](NC(C)=O)[C@@H](O)[C@H]1F)OC(=O)CCCCCCCCCCCCCCCCC | target | Influenza A virus | H4N1 A/DUCK/HK/849/80 | - | Sialidase | IC50 | - | 125 µM |
| CC(C)[C@H](NC(=O)c1ccc2c(c1)nc(-c1ccccn1)n2C1CCCCC1)C(=O)O | target | Poliovirus | - | - | RNA-dependent RNA polymerase | IC50 | - | >25 µM |
| Nc1ccn([C@@H]2C=C(CO)[C@@H](O)[C@H]2O)c(=O)n1 | culture | Cowpox virus | CPX | MK2 | - | EC50 | - | 0.06 µg/mL |
| O=C(N[C@@H](Cc1c[nH]c2ccc(O)cc12)C(=O)NC(CO)CO)c1ccc2c(c1)nc(-c1ccoc1)n2C1CCCCC1 | target | Poliovirus | - | - | RNA-dependent RNA polymerase | IC50 | - | >25 µM |
| Nc1ccn(C[C@H]2COP(=O)(O)CO2)c(=O)n1 | culture | Variola virus | Isolate Rafig Lahore | VERO | - | EC50 | - | 18 µg/mL |
| O=C(NCCc1c[nH]c2ccc(O)cc12)c1ccc2c(c1)nc(-c1ccoc1)n2C1CCCCC1 | target | Poliovirus | - | - | RNA-dependent RNA polymerase | IC50 | - | >25 µM |
| CCCCCCCCCCCCCCCCCC(=O)OC[C@@H](COP(=O)(O)OCCNCCO[C@@]1(C(=O)O)O[C@@H]([C@H](O)[C@H](O)CO)[C@H](NC(C)=O)[C@@H](O)[C@H]1F)OC(=O)CCCCCCCCCCCCCCCCC | target | Influenza A virus | H9N2 A/DUCK/86/1/76 | - | Sialidase | IC50 | - | 180 µM |
| Clc1ccc2c(c1)C=C(c1ccc(Br)cc1)CO2 | culture | Poliovirus | TYPE 2 | HEP-2 | - | inhibition | 10 µM | 26% |
| CCOc1ccc(C(NC(=O)c2ccc3c(c2)nc(-c2ccoc2)n3C2CCCCC2)C(=O)O)cc1OCC | target | Poliovirus | - | - | RNA-dependent RNA polymerase | IC50 | - | >25 µM |
| Cn1cc(NC(=O)c2cc(NC(=O)c3cc([N+](=O)[O-])cn3C)cn2C)cc1C(=O)NCCC(=N)N | culture | Vaccinia virus | Noguchi | BSC-1 | - | inhibition | 75 µg/mL | 0% |
| CCN(C(=O)N1C[C@H](N)[C@H](C(=O)O)C1)C(C)C | target | Influenza A virus | A/TOKYO/67 | - | Neuraminidase | Ki | - | 57 µM |
| Nc1ccn(C[C@@H](CO)OCP(=O)(O)O)c(=O)n1 | culture | Variola virus | Isolate V74-227 | VERO | - | EC50 | - | 10 µg/mL |
| Clc1ccc(C2COc3ccc(Cl)cc3C2)cc1 | culture | Poliovirus | IB (TYPE 2) | HEP-2 | - | EC50 | - | >10 µM |
| CCCCCCCCCCCCC/C=C/[C@@H](O)[C@H](CO[C@@H]1O[C@H](CO)[C@H](O)[C@H](OS(=O)(=O)O)[C@H]1O)NC(=O)CCCCCCCCCCCCCCCCCCCCCCC | target | Influenza A virus | H1N1 A/duck/Alberta/35/76 | - | Sialidase | inhibition | 200 µM | 65.6% |
| O=c1[nH]c(=O)n([C@@H]2O[C@H](CO)[C@@H](O)[C@@H]2F)cc1I | toxicity | - | - | C1271 | - | CC50 | - | 4.7 µM |
| Clc1ccc(C2=Cc3ccccc3OC2)cc1 | culture | Poliovirus | IA (TYPE 2) | HEP-2 | - | EC50 | - | <10 µM |
| O=C(O)CCCCOc1ccc(C[C@H](NC(=O)c2ccc3c(c2)nc(-c2ccoc2)n3C2CCCCC2)C(=O)O)cc1 | target | Poliovirus | - | - | RNA-dependent RNA polymerase | IC50 | - | >25 µM |
| Nc1nccc2c1ncn2[C@@H]1C[C@H](CO)[C@@H](O)[C@H]1O | culture | Variola virus | Isolate Brazil Garcia | LLC-MK2 | - | EC50 | - | 4.4 µg/mL |
| Cc1cn([C@@H]2O[C@H](CO)[C@@H](O)[C@@H]2O)c(=O)[nH]c1=O | toxicity | - | - | C1271 | - | CC50 | - | 95 µM |
| COC(=O)[C@H](Cc1cn(C)c2ccc(O)cc12)NC(=O)c1ccc2c(c1)nc(-c1ccoc1)n2C1CCCCC1 | target | Poliovirus | - | - | RNA-dependent RNA polymerase | IC50 | - | >25 µM |
| Nc1ccn([C@@H]2O[C@H](CO)[C@@H](O)[C@@H]2O)c(=O)n1 | toxicity | - | - | C1271 | - | CC50 | - | 0.4 µM |
| COc1ccc(C(NC(=O)c2ccc3c(c2)nc(-c2ccc(OC(C)C)cc2)n3C2CCCCC2)C(=O)O)cc1OC | target | Poliovirus | - | - | RNA-dependent RNA polymerase | IC50 | - | >25 µM |
| Cc1cn([C@@H]2O[C@H](CO)[C@@H](O)[C@@H]2F)c(=O)[nH]c1=O | toxicity | - | - | VERO | - | CC50 | - | 240 µM |
| Cc1c(C(=O)N[C@@H](Cc2c[nH]c3ccc(O)cc23)C(=O)O)ccc2c1nc(-c1ccoc1)n2C1CCCCC1 | target | Poliovirus | - | - | RNA-dependent RNA polymerase | IC50 | - | >25 µM |
| COC(=O)C1CC(C(=O)O)NC1C(CC(C)C)NC(C)=O | target | Influenza A virus | A/TOKYO/67 | - | Neuraminidase | IC50 | - | 0.037 µM |
| O=C(CCNC(=O)c1ccc2c(c1)nc(-c1ccoc1)n2C1CCCCC1)NC(Cc1cnc[nH]1)C(=O)O | target | Poliovirus | - | - | RNA-dependent RNA polymerase | IC50 | - | >25 µM |
| c1ccc(C2COc3ccccc3C2)cc1 | culture | Poliovirus | IA (TYPE 2) | HEP-2 | - | inhibition | 10 µM | 70% |
| COC(=O)[C@H](CCc1ccc(O)cc1)NC(=O)c1ccc2c(c1)nc(-c1ccoc1)n2C1CCCCC1 | target | Poliovirus | - | - | RNA-dependent RNA polymerase | IC50 | - | >25 µM |
| Cn1cc(NC(=O)c2cc(NC(=O)c3cc(NC(=O)c4cc(NC(=O)c5cc(NC=O)cn5C)cn4C)cn3C)cn2C)cc1C(=O)NCCC(=N)N | culture | Vaccinia virus | Noguchi | BSC-1 | - | inhibition | 10 µg/mL | 57% |
| CCN(C(=O)N1C[C@H](C(=O)O)[C@H](N)[C@H]1CNC(C)=O)C(C)C | target | Influenza A virus | A/TOKYO/67 | - | Neuraminidase | Ki | - | 2.1 µM |
| Cc1cnc(-c2nc3cc(C(=O)N[C@@H](Cc4c[nH]c5ccc(O)cc45)C(=O)O)ccc3n2C2CCCCC2)cn1 | target | Poliovirus | - | - | RNA-dependent RNA polymerase | IC50 | - | >25 µM |

4 of the rows above, restated:

O=C(NC1CCCNC1)c1ccc2c(c1)nc(-c1ccoc1)n2C1CCCCC1 ; kind: target ; species: Poliovirus ; target: RNA-dependent RNA polymerase ; measure: IC50 ; value: >25 µM
COC(=O)[C@H](CCc1ccc(O)cc1)NC(=O)c1ccc2c(c1)nc(-c1ccoc1)n2C1CCCCC1 ; kind: target ; species: Poliovirus ; target: RNA-dependent RNA polymerase ; measure: IC50 ; value: >25 µM
COc1ccc(C(NC(=O)c2ccc3c(c2)nc(-c2ccc(OC(C)C)cc2)n3C2CCCCC2)C(=O)O)cc1OC ; kind: target ; species: Poliovirus ; target: RNA-dependent RNA polymerase ; measure: IC50 ; value: >25 µM
Cn1cc(NC(=O)c2cc(NC(=O)c3cc([N+](=O)[O-])cn3C)cn2C)cc1C(=O)NCCC(=N)N ; kind: culture ; species: Vaccinia virus ; strain or isolate: Noguchi ; cells: BSC-1 ; measure: inhibition ; dose: 75 µg/mL ; value: 0%

Inhibition is in % at the dose shown (toxicity tests: loss of growth or viability). ECn: concentration that inhibits the pathogen or its effect by n%. ICn: concentration for n% inhibition. Lines come from different laboratories, so protocols vary. An empty or dashed field is not shown.